From paper PMC12153317 (2025)

Tests used:
[1] = target: T1, several other HA subtypes within groups 1 and 2 (soluble HA ectodomains, ELISA) (influenza A virus); assay: ELISA; A/mallard/Wisconsin/10OS3941/2010 H14N6
[2] = target: T2, all seasonal H1s (1977–2019) assayed (soluble HA ectodomains, ELISA) (influenza A virus); assay: ELISA; A/Texas/36/1991 H1N1
[3] = target: T3, all seasonal H3s (1968–2020) assayed (soluble HA ectodomains, ELISA) (influenza A virus); assay: ELISA; A/Philippines/02/1982 H3N2
[4] = target: T2, all seasonal H1s (1977–2019) assayed …; assay: ELISA; A/Solomon Islands/3/2006 H1N1
[5] = target: T1, several other HA subtypes within groups …; assay: ELISA; A/northern shoveler/California/HKWF1204/2007 H8N4
[6] = target: T2, all seasonal H1s (1977–2019) assayed …; assay: ELISA; A/USSR/90/1977 H1N1
[7] = target: T1, several other HA subtypes within groups …; assay: ELISA; A/swine/Hong Kong/9/98 H9N2
[8] = target: T1, several other HA subtypes within groups …; assay: ELISA; A/wedge-tailed shearwater/Western Australia/2576/1979 H15N9
[9] = target: T2, all seasonal H1s (1977–2019) assayed …; assay: ELISA; A/Chile/01/1983 H1N1
[10] = target: T3, all seasonal H3s (1968–2020) assayed …; assay: ELISA; A/Tasmania/503/2020(IVR-221) H3N2
[11] = target: T2, all seasonal H1s (1977–2019) assayed …; assay: ELISA; A/California/04/2009 H1N1
[12] = target: T3, all seasonal H3s (1968–2020) assayed …; assay: ELISA; A/Sydney/05/1997 H3N2
[13] = target: T2, all seasonal H1s (1977–2019) assayed …; assay: ELISA; A/Victoria/2570/2019(IVR-215) H1N1
[14] = target: T1, several other HA subtypes within groups …; assay: ELISA; A/Taiwan/1/2017 H7N9
[15] = target: T3, all seasonal H3s (1968–2020) assayed …; assay: ELISA; A/Hong Kong/4801/2014 H3N2
[16] = target: T3, all seasonal H3s (1968–2020) assayed …; assay: ELISA; A/Wisconsin/67/2005 H3N2
[17] = target: T1, several other HA subtypes within groups …; assay: ELISA; A/American black duck/New Brunswick/00464/2010 H4N6
[18] = target: T3, all seasonal H3s (1968–2020) assayed …; assay: ELISA; A/Aichi/02/1968(X31) H3N2
[19] = target: T1, several other HA subtypes within groups …; assay: ELISA; A/turkey/Wisconsin/1/1966 H9N2
[20] = target: T1, several other HA subtypes within groups …; assay: ELISA; A/black-headed gull/Sweden/2/99 H16N3
[21] = target: T4, specific HAs not engaged in ELISA (soluble HA ectodomains) (influenza virus); assay: ELISA; A/duck/Memphis/546/1974 H11N9
[22] = target: T4, specific HAs not engaged in ELISA …; assay: ELISA; B/Brisbane/60/2008
[23] = target: T4, specific HAs not engaged in ELISA …; assay: ELISA; A/Taiwan/2/2013 H6N1

| Binder | Kd [1] [nM] | Kd [2] [nM] | Kd [3] [nM] | Kd [4] [nM] | Kd [5] [nM] | Kd [6] [nM] | Kd [7] [nM] | Kd [8] [nM] | Kd [9] [nM] | Kd [10] [nM] | Kd [11] [nM] | Kd [12] [nM] | Kd [13] [nM] | Kd [14] [nM] | Kd [15] [nM] | Kd [16] [nM] | Kd [17] [nM] | Kd [18] [nM] | Kd [19] [nM] | Kd [20] [nM] | also measured |
| --- | --- | --- | --- | --- | --- | --- | --- | --- | --- | --- | --- | --- | --- | --- | --- | --- | --- | --- | --- | --- | --- |
| S8V1-157 recombinant human IgG1 (antibody, V domains shown) VH: EVQLVQSGAEVKKPGASVKVSCKVSGYRLTALSMHWVRQAPGKGLEWMGGFDPEEDETIYAQNFQGRVTLTEDTSTDTVYMELSSLRSEDTGVYYCATLMGANPFDYWGQGTLIIVSG VL: not shown | 1.2 | 1.2 | 0.29 | 8.3 | 4.5 | 2.7 | 26 | 6 | 8.1 | 0.22 | 3.8 | 0.21 | 2.1 | < 0.1 | 0.49 | 0.42 | 0.32 | 0.18 | – | – | – |
| S1V2-65 recombinant human IgG1 (antibody, V domains shown) VH: EVQLVQSGAEVKKPGETLKISCKGSGYSFTNYWIGWVRQMPGKGLECMGIIDPSDSETRYSPSFQGQVTISADKSTNTAFLQWSTVKASDTAIYYCARLGYGDSPPFDFWGQGAGVTVS VL: MTQSPLSLPVTPGESASISCRSSQSLLYSNGYNHLDWYVQKPGQPPQLLIFLGSTRASGVSDRVSGSGSGTDFTLQISRVEAEDVGVYYCMQALETPYTFGQGTKLEVK | 0.3 | 1 | – | 4.1 | 1.7 | 2.2 | 8 | 8 | 5.3 | – | 1 | – | 0.4 | 0.12 | – | – | 0.2 | – | – | – | – |
| S1V2-17 recombinant human IgG1 (antibody, V domains shown) VH: QVKLVQSGAEVKKPGASVKVSCKVSGYTLSELSIHWVRQVPGKGLESMGGFDPEDDGAIYAESFQGRVTMTEDTSTDTSFMELHSLRSEDTAVYYCVTWLVGTTVAAYWGQGTLVTVS VL: MTQTPFSLPVTPGEPASISCRSSQSLLYSNGYNHLDWYLQKPGQSPQLLIYLGSYRASGVPDRFSGSGSGTDFTLKISRVEADDVGVYYCMQALQAPRTFGQGTKVEIK | 1.9 | 2.9 | 0.58 | 14 | 9.2 | 7 | 13 | 61 | 13 | 0.62 | 6.9 | 0.5 | 2.8 | 0.11 | 0.85 | 0.99 | 0.55 | 0.34 | – | – | – |
| S1V2-60 recombinant human IgG1 (antibody, V domains shown) VH: EVQLVQSGAEVSEPGKSLKISCKGSAYSFINYWIGWVRQMPGKGLECMGIIDPSDSETRYNPSFEGHVLISADTSINTAYLQWSSLRASDTAMYYCVRLGYGDSPPFDSWGQGTLVTVS VL: MTQSPFSLPVTPGEPASISCRSSQSLLYSNGYNHLDWYQQKPGQPPQLLIFLGSRRASGVPDRFSGSGSGTDFTLKISRVEAEDVGVYYCMQALQDPYTFGQGTKLEIK | 0.26 | 0.73 | 0.25 | 3.5 | 0.77 | 1.2 | 0.48 | 0.65 | 3.7 | 0.28 | 0.86 | 0.27 | 0.39 | 0.13 | 0.26 | 0.26 | 0.17 | 0.16 | 3.2 | 20 | – |
| FI6v3 recombinant human IgG (antibody, V domains shown) VH: QVQLVESGGGVVQPGRSLRLSCAASGFTFSTYAMHWVRQAPGKGLEWVAVISYDANYKYYADSVKGRFTISRDNSKNTLYLQMNSLRAEDTAVYYCAKDSQLRSLLYFEWLSQGYFDYWGQGTLVTVSS VL: DIVMTQSPDSLAVSLGERATINCKSSQSVTFNYKNYLAWYQQKPGQPPKLLIYWASTRESGVPDRFSGSGSGTDFTLTISSLQAEDVAVYYCQQHYRTPPTFGQGTKVEIK | 1.4 | 0.28 | 1.2 | 0.67 | 0.29 | 0.32 | 0.4 | 2.5 | 0.33 | 2.8 | 0.42 | 3 | 0.35 | 0.24 | 0.88 | 3.5 | 1.4 | 0.31 | 0.37 | 0.55 | Kd [21]: 0.74 nM; Kd [22]: > 100 nM; Kd [23]: 0.47 nM |
